Measured values as given in patent publication US20130059096A1, “METHODS AND COATINGS FOR TREATING BIOFILMS” (President and Fellows of Harvard College, priority 2010, published 2013).

System: cell wall
Test: Incorporation of radioactive amino acids into the cell wall
Assay type: cell-based, Bacillus subtilis
Details: 14C-labelled, 10 μCi/ml, 2 h at 37° C.

Structure (SMILES) | Incorporation into the cell wall (FIG. 3A) | total incorporation into cells
N[C@H](Cc1ccc(O)cc1)C(=O)O [D-tyrosine] | incorporated into the cell wall | 46,000 cpm/ml
O=C(O)[C@@H]1CCCN1 [L-proline, reference compound] | but not | 360,000 cpm/ml
